Pooled drug test results. Numbers come from NIAID ChemDB, via PubChem.

Shared fields: growth or infection tests; species: Mycobacterium tuberculosis

Conditions beyond the fields shown may differ between rows. MIC bound comes from a single tested concentration. Percent inhibition refers to the dose given; in toxicity tests it is the harm to the cells. Blank or dashed fields: not listed here. ECn is the concentration giving n% inhibition of infection, replication or growth. A number after MIC or MFC names an inhibition level or a share of isolates. Two numbers with a dash give a range or band.

compound,measure,tested at,cells,strain or isolate,mutations,method,value
COc1nc(C)nc(NC(=O)NS(=O)(=O)c2ccccc2OCCCl)n1,MIC,,,T13704,,,6.2 µM
O=c1[nH]c2cc([N+](=O)[O-])ccc2c(O)c1N=Nc1ccc(Br)cc1,inhibition,6.25 µg/mL,,H37Rv,,resazurin,100%
CCCCCCn1c(=O)c2c3c(cnc2n(CCCCCC)c1=O)C(=O)C1=C(C3=O)C2CCC1C2,EC99,,,H37Rv,pSMT1 luciferase reporter plasmid,luminescence,11.6 µg/mL
Cc1c2ccncc2c(C)c2c1[nH]c1ccc(OCCN(C)C)cc12,MIC bound,,,H37Rv,,resazurin,>6.25 µg/mL
Cc1cc(F)ccc1C1CN(C(=O)CCC(F)(F)F)C1,EC50,,THP-1,H37Rv,,fluorescence,0.05–0.25 µM
Cc1c2c(cc3c1[nH]c1ccccc13)C(c1ccc(Cl)cc1)=NCC2,inhibition,6.25 µg/mL,,H37Rv,,resazurin,94%
CC1CN(c2c(F)cc3c(=O)c(C(=O)O)cn(C4CC4)c3c2F)CCN1,MIC,,,CSU18,,,≤0.125 µg/mL
CCCCCN1C(=O)c2cc(Cl)nnc2Oc2ccc(C)cc21,inhibition,12.5 µg/mL,,H37Rv,,BACTEC,27%
FC(F)(F)C(F)(F)C(F)(F)C(F)(F)c1nc2c(Br)cc(Br)cc2[nH]1,MIC,,,My 331/88,,,16 µM
CN(C)CCCN1c2ccccc2Sc2ccc(Cl)cc21,MIC,,,Isolate D (drug-resistant),,,20 µg/mL
C[C@]1(COc2ccc(N3CCC(COc4ccc5ccccc5c4)CC3)cc2)Cn2cc([N+](=O)[O-])nc2O1,MIC,,,H37Rv,,,0.024 µg/mL
Cc1cn2c(C(=O)NCc3ccc(C(F)(F)F)cc3)c(C)nc2s1,MIC,,,H37Rv,QcrB1 A317V,resazurin / fluorescence,4.7 µM
Cc1ccc(S(=O)(=O)c2ccccc2[N+](=O)[O-])cc1,inhibition,12.5 µg/mL,,H37Rv,,BACTEC,5%
Cc1c(Cl)cccc1N=Nc1c(O)c2ccc([N+](=O)[O-])cc2[nH]c1=O,MIC,,,H37Rv,,resazurin,<6.25 µg/mL
FC(F)(F)C(F)(F)c1nc2c(Br)cc(Br)cc2[nH]1,MIC,,,My 331/88,,,16 µM
CCCCCCCN1C(=O)c2ccnnc2Oc2ccc3ccccc3c21,EC50,,,H37Rv,,BACTEC,>12.5 µg/mL
O=C1NN=C(c2ccc(Br)cc2)CS1,MIC bound,,,H37Rv,,resazurin,>6.25 µg/mL
CCn1cc(C(=O)O)c(=O)c2cc(F)c(N3CCN(C)CC3)cc21,MIC90,,,9 isolates (RMP INH-S),,,16 µg/mL
O=c1c[n+]([O-])cc[nH]1,MIC bound,,,H37Rv,,BACTEC,>12.5 µg/mL
O=[N+]([O-])c1cc(Sc2nc3ccc(Cl)cc3[nH]2)cc([N+](=O)[O-])c1,MIC,,,My 331/88,,,2 µM
Cc1cn2c(C(=O)NCc3ccc(N4CCN(c5ccc(C(F)(F)F)cn5)CC4)c(F)c3)c(C)nc2s1,MIC,,,H37Rv,QcrB6 A317T,resazurin / fluorescence,0.15 µM
CCCCCCn1c(=O)c2c3c(cnc2n(CCCCCC)c1=O)C(=O)C1=C(C3=O)C2CCC1CC2,EC99,,,H37Rv,pSMT1 luciferase reporter plasmid,luminescence,14.89 µg/mL
O=C(CCC(F)(F)F)N1CC(c2ccc(F)cc2)C1,EC50,,THP-1,H37Rv,,fluorescence,<0.05 µM
CCCCOc1ccc(NC(=S)Nc2ccc(N(C)C)cc2)cc1,MIC,,,BCG #256,,,16.6 µg/mL
FC(F)(F)C(F)(F)C(F)(F)C(F)(F)c1nc2c(Br)c(Br)c(Br)c(Br)c2[nH]1,MIC,,,My 331/88,,,16 µM
CC1(C)CCC[C@]2(C)[C@H]3C=C4C=C(O)C(=O)C=C4O[C@@]3(C)CC[C@@H]12,MIC bound,,,H37Rv,,BACTEC,≤12.5 µg/mL
CN(c1ccc(Cl)cc1)C1CCN(C2CCN(c3ccc(OC[C@@]4(C)Cn5cc([N+](=O)[O-])nc5O4)cc3)CC2)CC1,MIC,,,H37Rv,,,0.024 µg/mL
FC(F)(F)C(F)(F)C(F)(F)c1nc2c(Br)c(Br)c(Br)c(Br)c2[nH]1,MIC,,,My 331/88,,,4 µM
O=c1[nH]c2ccccc2c(O)c1N=Nc1ccccc1,MIC,,,H37Rv,,resazurin,<6.25 µg/mL
CCCCOc1ccc(NC(=S)Nc2ccc(OCCN(CC)CC)cc2)cc1,MIC,,,H37RV #301,,,125 µg/mL
COC1(c2ccc(F)cc2)CN(C(=O)CCC(F)(F)F)C1,EC50,,THP-1,H37Rv,,fluorescence,<0.05 µM
CC(C)C1CCc2ncc3c(c2C1=O)C(=O)C1=C(C3=O)C2CCC1C2,EC99,,,H37Rv,pSMT1 luciferase reporter plasmid,luminescence,39.2 µg/mL
C[C@]1(COc2ccc(N3CCN(C/C=C/c4cc(Cl)ccc4Cl)CC3)cc2)Cn2cc([N+](=O)[O-])nc2O1,MIC,,,H37Rv,,,0.024 µg/mL
CC1CN(c2c(F)cc3c(=O)c(C(=O)O)cn(C4CC4)c3c2F)CC(C)N1,MIC,,,CSU12,,,≤0.125 µg/mL
C[C@]1(COc2ccc(N3CCN(C/C=C/c4ccc(F)c(C(F)(F)F)c4)CC3)cc2)Cn2cc([N+](=O)[O-])nc2O1,MIC,,,H37Rv,,,0.12 µg/mL
CCCCCCN1C(=O)c2cc(Cl)nnc2Oc2cc(C)ccc21,EC50,,,H37Rv,,BACTEC,<12.5 µg/mL
C[C@]1(COc2ccc(N3CCC(N4CCN(c5ccc(OC(F)(F)F)cc5)CC4)CC3)cc2)Cn2cc([N+](=O)[O-])nc2O1,MIC,,,H37Rv,,,0.024 µg/mL
CC(=O)c1c(C)[nH]c(C(=O)N/N=C/c2cccc([N+](=O)[O-])c2)c1C,inhibition,6.25 µg/mL,,H37Rv,,resazurin,21%
O=C(CCC(F)(F)F)N1CC(c2ccc(F)cn2)C1,EC50,,THP-1,H37Rv,,fluorescence,0.05–0.25 µM
CN[C@@H]1[C@H](O[C@H]2[C@H](O[C@H]3[C@H](O)[C@@H](O)[C@H](N=C(N)N)[C@@H](O)[C@@H]3N=C(N)N)O[C@@H](C)[C@]2(O)C=O)O[C@@H](CO)[C@H](O)[C@H]1O,MIC,,,H37RV #164,,,3.9 µg/mL
COC(=O)Nn1c(C)c(C(=O)OC)c(C(=O)Nc2ccccc2)c1-c1ccccc1,MIC bound,,,H37Rv,,resazurin,>6.25 µg/mL
O=[N+]([O-])c1cc(Sc2nc3ccc(I)cc3[nH]2)cc([N+](=O)[O-])c1,MIC,,,My 331/88,,,2 µM
CC(C)(C)SC(=S)SCC(=O)c1cc2cc(Br)ccc2o1,MIC bound,,,H37Rv,,BACTEC,>12.5 µg/mL
CO[C@H]1/C=C/O[C@@]2(C)Oc3c(C)c(O)c4c(O)c(c(/C=N/N5CCN(C)CC5)c(O)c4c3C2=O)NC(=O)/C(C)=C\C=C\[C@H](C)[C@H](O)[C@@H](C)[C@@H](O)[C@@H](C)[C@H](OC(C)=O)[C@@H]1C,MIC,,,ATCC35801,,,0.03 µM
CC(C)CCN1C(=O)c2cc(Cl)nnc2Oc2ccc(Cl)cc21,inhibition,12.5 µg/mL,,H37Rv,,BACTEC,30%
NC1=NC(c2ccc(Cl)cc2)N(c2ccc(S(=O)(=O)Nc3ncccn3)cc2)C(N)=N1,inhibition,12.5 µg/mL,,H37Rv,,BACTEC,31%
O=C(CCC(F)(F)F)N1CC(c2cncc(Cl)c2)C1,EC50,,THP-1,H37Rv,,fluorescence,<0.05 µM
Cc1ccc2c(c1)N(CCC(C)C)C(=O)c1cc(Cl)nnc1O2,EC50,,,H37Rv,,BACTEC,<12.5 µg/mL
Cc1cc(O)c2c(c1)OC1(C)CCC3C(C)(C)CCCC34COC2C14,MIC bound,,,H37Rv,,BACTEC,>12.5 µg/mL
Cc1ccc(F)c(OCC2CCN(c3ccc(OC[C@@]4(C)Cn5cc([N+](=O)[O-])nc5O4)cc3)CC2)c1,MIC,,,H37Rv,,,0.024 µg/mL
O=c1[nH]c2c([N+](=O)[O-])cccc2c(O)c1N=Nc1ccccc1[N+](=O)[O-],inhibition,6.25 µg/mL,,H37Rv,,resazurin,80%
C[C@]1(COc2ccc(N3CCN(C/C=C/c4cccc(Cl)c4)CC3)cc2)Cn2cc([N+](=O)[O-])nc2O1,MIC,,,H37Rv,,,0.024 µg/mL
NNC(=O)Cc1c[nH]c2ccccc12,inhibition,12.5 µg/mL,,H37Rv,,BACTEC,10%
CO[C@H]1/C=C/O[C@@]2(C)Oc3c(C)c(O)c4c(O)c(c5c(c4c3C2=O)NC2(CCN(CC(C)C)CC2)N=5)=NC(=O)/C(C)=C\C=C\[C@H](C)[C@H](O)[C@@H](C)[C@@H](O)[C@@H](C)[C@H](OC(C)=O)[C@@H]1C,MIC,,,CSU28,,,≤0.125 µg/mL
COC(=O)C1=C(C(=O)OC)C2OC1C1OC21,inhibition,12.5 µg/mL,,H37Rv,,BACTEC,21%
Cc1cn2c(C(=O)NCc3ccccc3C(F)(F)F)c(C)nc2s1,MIC,,,H37Rv,,resazurin / fluorescence,>1 µM
FC(F)(F)C(F)(F)c1nc2c(Cl)cc(Cl)cc2[nH]1,MIC,,,My 331/88,,,16 µM
CC(C)Cn1c(=O)c2c3c(cnc2n(CC(C)C)c1=O)C(=O)C1=C(C3=O)C2CCC1C2,EC99,,,H37Rv,pSMT1 luciferase reporter plasmid,luminescence,11.01 µg/mL
O=C(O)c1cn(C2CC2)c2c(Cl)c(N3C[C@@H]4CCCN[C@@H]4C3)c(F)cc2c1=O,MIC90,,,Resistant,,,0.13 µg/mL
CCC1CN(c2c(F)cc3c(=O)c(C(=O)O)cn(C4CC4)c3c2OC)CCN1,MIC,,,Isolate TN5410,,,0.2 µg/mL
CCOc1ccn(CC(=O)c2ccc([N+](=O)[O-])o2)c(=O)n1,MIC bound,,,H37Rv,,resazurin,>6.25 µg/mL
C[C@]1(COc2cccc(-c3ncc(-c4ccc(Cl)cc4)o3)c2)Cn2cc([N+](=O)[O-])nc2O1,MIC,,,H37Rv,,,0.78 µg/mL
C[C@@H]1OC(=O)[C@H]2C[C@H]3CCCC[C@@H]3[C@@H](/C=C/[C@H]3CCC[C@H](C)N3C)[C@@H]12,MIC,,,H37Rv,,BACTEC,≥128 µg/mL
O=C(CCC(F)(F)F)N1CC(c2cccc(C(F)(F)F)c2)C1,EC50,,THP-1,H37Rv,,fluorescence,<0.05 µM
CSC(=S)NNC(C)c1nccc2ccccc12,MIC,,,H37Rv,,,4 µg/mL
C[C@]1(COc2ccc(N3CCN(Cc4cc5cc(Cl)ccc5s4)CC3)cc2)Cn2cc([N+](=O)[O-])nc2O1,MIC,,,H37Rv,,,0.006 µg/mL
Cc1nc2c(=O)n(C)c(=O)n(C)c2nc1C,MIC bound,,,H37Rv,,BACTEC,>12.5 µg/mL
CO[C@H]1/C=C/O[C@@]2(C)Oc3c(C)c(O)c4c(O)c(cc(O)c4c3C2=O)NC(=O)/C(C)=C\C=C\[C@H](C)[C@H](O)[C@@H](C)[C@@H](O)[C@@H](C)[C@H](OC(C)=O)[C@@H]1C,MIC,,,Aoyama B (isoniazid-resistant),,,6.3 µg/mL
NC(=O)NNC(=O)CCn1[nH]c(=O)c(Cl)c(Cl)c1=O,inhibition,12.5 µg/mL,,H37Rv,,BACTEC,6%
CCCCCCN1C(=O)c2cc(Cl)nnc2Oc2ccc3ccccc3c21,inhibition,12.5 µg/mL,,H37Rv,,BACTEC,0%
CO[C@H](C(=O)[C@@H](O)[C@@H](C)O)[C@@H]1Cc2cc3cc(O[C@H]4C[C@@H](O[C@H]5C[C@@H](O)[C@H](O)[C@@H](C)O5)[C@@H](O)[C@@H](C)O4)c(C)c(O)c3c(O)c2C(=O)[C@H]1O[C@H]1C[C@@H](O[C@H]2C[C@@H](O[C@H]3C[C@](C)(O)[C@H](O)[C@@H](C)O3)[C@H](O)[C@@H](C)O2)[C@H](O)[C@@H](C)O1,MIC bound,,,H37Rv,,BACTEC,>12.8 µg/mL
Cc1cn2c(C(=O)NCc3cccc(C(F)(F)F)c3)c(C)nc2s1,MIC,,,H37Rv,,luminescence,6.35 µM
C=C(C)C1CCC2(CO)C(O)CC3(C)C(CCC4C5(C)CCC(O)C(C)(C)C5CCC43C)C12,inhibition,12.5 µg/mL,,H37Rv,,BACTEC,0%
COc1nc(C)nc(NC(=O)NS(=O)(=O)c2ccccc2Cl)n1,MIC,,,P4145,,,62 µM
O=C(NNC(=S)Nc1ccccc1)c1ccccn1,inhibition,6.25 µg/mL,,H37Rv,,resazurin,-65%
CCCCCCCN1C(=O)c2cc(Cl)nnc2Oc2ccc(C)cc21,EC50,,,H37Rv,,BACTEC,>12.5 µg/mL

Again, the opening 4 rows:

compound,measure,tested at,cells,strain or isolate,mutations,method,value
COc1nc(C)nc(NC(=O)NS(=O)(=O)c2ccccc2OCCCl)n1,MIC,,,T13704,,,6.2 µM
O=c1[nH]c2cc([N+](=O)[O-])ccc2c(O)c1N=Nc1ccc(Br)cc1,inhibition,6.25 µg/mL,,H37Rv,,resazurin,100%
CCCCCCn1c(=O)c2c3c(cnc2n(CCCCCC)c1=O)C(=O)C1=C(C3=O)C2CCC1C2,EC99,,,H37Rv,pSMT1 luciferase reporter plasmid,luminescence,11.6 µg/mL
Cc1c2ccncc2c(C)c2c1[nH]c1ccc(OCCN(C)C)cc12,MIC bound,,,H37Rv,,resazurin,>6.25 µg/mL